Pooled drug test results. Numbers come from NIAID ChemDB, via PubChem.

All rows: growth or infection tests; species: HIV-1; cell line: Jurkat cells; measure: EC50

Neighbouring rows are from separate reports. ECn is the concentration giving n% inhibition of infection, replication or growth.

{"SMILES": "Nc1cccc2cc3ccccc3nc12", "result": ">50 µM"}
{"SMILES": "Nc1nc(NC2CC2)c2ncn([C@H]3C=C[C@@H](CO)C3)c2n1", "read by": "GFP / reporter gene / fluorescence", "conditions": "pseudotyped", "result": "0.026 µM"}
{"SMILES": "COc1cc2c(cc1OCCC(=O)Nc1cc(C(=O)Nc3cc(C(=O)NCCC(=N)N)n(C)c3)n(C)c1)N=C[C@@H]1CCCN1C2=O", "read by": "PCR", "result": "3 µM"}
{"SMILES": "C[C@H]1[C@@H](OC(=O)CCC(=O)O)O[C@@H]2O[C@@]3(C)CC[C@H]4[C@H](C)CC[C@@H]1[C@@]24OO3", "strain or isolate": "NL4-3", "read by": "p24", "result": "~0.6 µM"}
{"SMILES": "CCC(O)[NH+]1CC[NH+](C(O)CC)CC1.[Cl][Pt-2]([Cl])([Cl])([Cl])([Cl])[Cl]", "read by": "luciferase / β-galactosidase", "result": ">3 µM"}
{"SMILES": "CN1C(C(=O)Nc2ccccn2)=C(O)c2ccccc2S1(=O)=O", "strain or isolate": "MN", "read by": "p24", "result": ">50 µM"}
{"SMILES": "CN[C@@H](C)C(=O)N[C@H]1CCSC2CC(C)(C)[C@@H](C(=O)N[C@H]3c4ccccc4C[C@H]3OCCCCCCCCO[C@@H]3Cc4ccccc4[C@@H]3NC(=O)[C@H]3N4C(=O)[C@@H](NC(=O)[C@H](C)NC)CCSC4CC3(C)C)N2C1=O", "read by": "fluorescence", "result": "0.0116 µM"}
{"SMILES": "Cc1cccnc1CN(CCCCN)Cc1nccc2cc(Br)ccc12", "read by": "flow cytometry", "result": "0.039 µM"}
{"SMILES": "CCOC(=O)c1cn(C)c2cc(N3CCN(c4ccccn4)CC3)c(N)cc2c1=O", "strain or isolate": "HXBc2", "read by": "RT activity", "result": ">1 µM"}
{"SMILES": "CN[C@@H](C)C(=S)N[C@H]1CCSC2CC(C)(C)[C@@H](C(=O)Nc3ccc(Cc4ccc(NC(=O)[C@H]5N6C(=O)[C@@H](NC(=S)[C@H](C)NC)CCSC6CC5(C)C)cc4)cc3)N2C1=O", "read by": "fluorescence", "result": "0.5851 µM"}
{"SMILES": "CS(=O)c1ccc(-c2nc(-c3ccc(F)cc3)c(-c3ccncc3)[nH]2)cc1", "strain or isolate": "BaL", "read by": "p24", "result": ">1 µM"}
{"SMILES": "Cc1cccnc1CN(CCCCN)Cc1ccccn1", "read by": "flow cytometry", "result": "0.0062 µM"}
{"SMILES": "COc1cccc(C(=O)C2C(c3ccc(Cl)cc3)C(C#N)(C(N)=O)C3CCc4cc(C)ccc4N23)c1", "read by": "luciferase", "result": "17 µM"}
{"SMILES": "COc1cc2ccnc(CN(CCCCN)Cc3ncccc3C)c2cc1OC", "read by": "flow cytometry", "result": "0.0032 µM"}
{"SMILES": "CCOC(=O)P(=O)(O)OC[C@H]1O[C@@H](n2cc(C)c(=O)[nH]c2=O)C[C@@H]1N=[N+]=[N-]", "strain or isolate": "pHXBc2", "read by": "RT activity", "result": "0.1 µM"}
{"SMILES": "Nc1c2ccccc2nc2ccccc12", "result": ">50 µM"}
{"SMILES": "CN[C@H](C)C(=O)N[C@H]1CCSC2CC(C)(C)[C@@H](C(=O)N[C@@H](COCc3cn(COC[C@@H](NC(=O)[C@H]4N5C(=O)[C@@H](NC(=O)[C@@H](C)NC)CCSC5CC4(C)C)c4ccccc4)nn3)c3ccccc3)N2C1=O", "read by": "fluorescence", "result": "0.0959 µM"}